Results on one compound are retold here after patent publication US20070082942A1, “Prevention of hiv-1 infection by inhibition of rho-mediated reorganization and/or content alteration of cell membrane raft” (priority 2003, published 2007).

SMILES strings stand for the structures.

The subject of this data set is PHA-activated human PBMC.

On to `CC[C@H](C)C(=O)O[C@H]1C[C@@H](C)C=C2C=C[C@H](C)[C@H](CC[C@@H]3C[C@@H](O)CC(=O)O3)[C@H]21` [lovastatin], for which the Cytotoxic effects result is listed as “no cytotoxic effects”.
